Data: patent US9295730B2, “Conjugated molecules comprising a peptide derived from the CD4 receptor coupled to a polyanion for the treatment of AIDS” (Institut Pasteur, priority 2008, dated 2016)

Tests used:
[1] = target: T1, gp120 MN/HS interaction (Human immunodeficiency virus type 1 group M subtype B, UniProt P05877); test: Biacore inhibition of gp120 MN binding to HS surface; set-up: species or system HIV; conditions: gp120 MN and inhibitors at 40 nM
T1 construct: of mCD4-HS12 for MN and YU2 gp120
Experimental: FIG. 5: Diagram representing the binding of gp120 (MN) to HS.
(§1) Two different gp120 were used, originating from a type X4 isolate (gp120 MN) and a type R5 isolate (gp120 YU2). The capacity of different molecules to inhibit gp120 interactions with various receptors or co-receptors is measured by surface plasmonic resonance (Biacore). To do this, three compounds are immobilized on the surface of a biosensor (Sensorchip CM 4 Biacore) in accordance with the described procedure (Vives et al. J. Biol. Chem. 279, 54327-54333, 2005). These are CD4, HS (or heparin) and a monoclonal antibody (mAb 17b). This antibody recognizes the epitope induced by CD4 and mimics co-receptor CCR5 or CXCR4. These three surfaces represent the three main molecules on the cell surface recognized by gp120 (CD4, co-receptors and HS).
(§2) In the set of experiments described below, gp120 (light lines on FIGS. 4 to 6) alone or pre-incubated with the compound to be tested (heavy lines on FIGS. 4 to 6) is injected onto these surfaces, and the interaction signal is measured as a function of time for five minutes.

[2] = test system: R5-tropic HIV-1/Ba-L; test: Antiviral assay, PHA-P-activated PBMC infected with HIV-1/Ba-L, RT activity in supernatants; format: cell-based; conditions: Table 6, /Ba-L (R5), 100 TCID50, day 7, RT activity, ±S.D.
[3] = target: gp120 MN/mAb 17b interaction (Human immunodeficiency virus type 1 group M subtype B, UniProt P05877); test: Biacore gp120 MN binding to mAb 17b surface; set-up: species or system HIV
Experimental: (§3) FIG. 6: Diagram representing the binding of gp120 (YU2 or MN) to mAb 17b.
(§4) FIG. 7: Diagram representing the binding of gp120 MN (top) or YU2 (bottom) to mAb 17b.
as §1, §2
(§5) The quantity of gp120 bound to the antibody is measured at the end of the injection.

[4] = test system: Δenv + VSVg-HIV-1 (Δenv+VSVg-luc); format: cell-based, HIV-1 pseudotyped with VSV-G
[5] = target: gp120 YU2/mAb 17b interaction (Human immunodeficiency virus type 1 group M subtype B, UniProt P35961); test: Biacore gp120 YU2 binding to mAb 17b surface; set-up: species or system HIV
Experimental: as §3, §4, §1, §2, §5

[6] = target: T2, MN gp120 (X4) (Human immunodeficiency virus type 1 group M subtype B, UniProt P05877); test: Surface plasmon resonance binding of mCD4-HS12 to immobilized MN gp120; set-up: species or system HIV; conditions: read-out: Kd = koff1/kon1
T2 construct: of mCD4-HS12 for MN and YU2 gp120
Experimental: (§6) FIG. 9. The mCD4-HS12 (3) binds to gp120 unmasks and blocks the gp120 coreceptor binding site. Overlay of sensorgrams showing the binding of mCD4-HS12 (25), at (from top to bottom) 76, 51, 37, 22, 15 and 10 nM, to immobilized YU2 (a) or MN (b) gp120. mCD4 (black) or mCD4-HS12 (25) (bold) were injected for 5 mins (100 to 400 s) at 200 nM over a YU2 (c,e) or MN (d,f) activated sensorchip, after which mAb 17b (c,d) or mAb E51 (e,f) were injected for a further 5 mins (400 to 700 s). The binding responses (in RU) were recorded as a function of time (in s). […]
(§7) Association (kon) and dissociation (koff) rate constants (the mean of two independent analyses) of mCD4-HS12 (25) for MN and YU2 gp120 were determined by fitting the primary data of FIGS. 9a,b using the Biaeval 3.1 software. […] However, some deviations of the data from this model were observed, as measured by the χ^2 parameter (which describes the closeness of the fit). […] However this cannot be quantified here because, for the bivalent binding model, the association rate constant for the second binding site is in RU^−s^−1 (the reaction involves the complex (in RU) binding to ligand (also in RU)), and not in M^−1s^−1.

[7] = test system: NL4-3 HIV-1 (NL4-3-renilla); format: cell-based; conditions: PBMC, day 2, 10^6 RLU virus (untreated 4.38 ± 0.49)
[8] = target: gp120 MN/CD4 interaction (Human immunodeficiency virus type 1 group M subtype B, UniProt P05877); test: Biacore inhibition of gp120 MN binding to CD4 surface; set-up: species or system HIV; conditions: gp120 MN (X4) and inhibitors at 100 nM
Experimental: as §1, §2

[9] = target: T3, YU2 gp120 (R5) (Human immunodeficiency virus type 1 group M subtype B, UniProt P35961); test: Surface plasmon resonance binding of mCD4-HS12 to immobilized YU2 gp120; set-up: species or system HIV; conditions: read-out: Kd = koff1/kon1
T3 construct: of mCD4-HS12 for MN and YU2 gp120
Experimental: as §6, §7

[10] = target: gp120 YU2/CD4 interaction (Human immunodeficiency virus type 1 group M subtype B, UniProt P35961); test: Biacore inhibition of gp120 YU2 binding to CD4 surface; set-up: species or system HIV; conditions: gp120 YU2 (R5) and inhibitors at 100 nM
Experimental: as §1, §2

[11] = test system: X4-tropic HIV-1-LAI; test: Antiviral assay, PHA-P-activated PBMC infected with HIV-1-LAI, RT activity in supernatants; format: cell-based; conditions: Table 6, LAI (X4), 100 TCID50, day 7, RT activity, ±S.D.
[12] = read-out: ED50 (the source's name)
[13] = Bivalent binding model, initial binding step

Structure (SMILES): CC(C)C[C@@H]1NC(=O)CNC(=O)[C@H](CC(C)C)NC(=O)[C@H](CO)NC(=O)[C@H](CO)NC(=O)[C@@H]2CSSC[C@@H](C(=O)N[C@H](C(N)=O)C(C)C)NC(=O)[C@H](C)NC(=O)[C@@H]3CSSC[C@H](NC(=O)[C@H](CCCCNC(=O)CCOCCOCCNC(=O)CCN4C(=O)CC(SCCC(=O)NCCCCCO[C@@H]5O[C@H](COS(=O)(=O)O)[C@@H](O[C@@H]6O[C@@H](C(=O)O)[C@@H](O[C@H]7O[C@H](COS(=O)(=O)O)[C@@H](O[C@@H]8O[C@@H](C(=O)O)[C@@H](O[C@H]9O[C@H](COS(=O)(=O)O)[C@@H](O[C@@H]%10O[C@@H](C(=O)O)[C@@H](O[C@H]%11O[C@H](COS(=O)(=O)O)[C@@H](O[C@@H]%12O[C@@H](C(=O)O)[C@@H](O[C@H]%13O[C@H](COS(=O)(=O)O)[C@@H](O[C@@H]%14O[C@@H](C(=O)O)[C@@H](O[C@H]%15O[C@H](COS(=O)(=O)O)[C@@H](O[C@@H]%16O[C@@H](C(=O)O)[C@@H](O)[C@H](O)[C@H]%16OS(=O)(=O)O)[C@H](O)[C@H]%15NS(=O)(=O)O)[C@H](O)[C@H]%14OS(=O)(=O)O)[C@H](O)[C@H]%13NS(=O)(=O)O)[C@H](O)[C@H]%12OS(=O)(=O)O)[C@H](O)[C@H]%11NS(=O)(=O)O)[C@H](O)[C@H]%10OS(=O)(=O)O)[C@H](O)[C@H]9NS(=O)(=O)O)[C@H](O)[C@H]8OS(=O)(=O)O)[C@H](O)[C@H]7NS(=O)(=O)O)[C@H](O)[C@H]6OS(=O)(=O)O)[C@H](O)[C@H]5NS(=O)(=O)O)C4=O)NC(=O)[C@H](Cc4c[nH]cn4)NC(=O)[C@H](CC(C)C)NC(=O)[C@H](CC(N)=O)NC(=O)CCSSC[C@H](NC(=O)[C@H](CCCNC(=N)N)NC(=O)CNC(=O)[C@H](CC(C)C)NC1=O)C(=O)N[C@@H](C)C(=O)NCC(=O)N[C@@H](CO)C(=O)N[C@@H](Cc1ccc(-c4ccccc4)cc1)C(=O)N3)C(=O)N[C@@H](CCC(N)=O)C(=O)N[C@@H](CC(C)C)C(=O)N[C@@H](CCCNC(=N)N)C(=O)N2 (stereo partly drawn) [mCD4-HS12, mCD4-PEO2-dodecasaccharide]
- inhibition of gp120/HS interaction [1]: totally inhibit the interaction
- ED70 [2]: 4.9 ± 0.3 nM
- ED90 [2]: 11.1 ± 7.6 nM
- EC50 [2, 12]: 2.4 ± 1.9 nM
- effect on gp120-17b interaction ([3]; 40 nM gp120 MN co-incubated with 0 to 80 nM, FIG. 7): strongly inhibits the gp120-17b interaction
- effect on gp120 binding to mAb 17b ([3]; gp120 MN and inhibitors at 40 nM, FIG. 6): totally inhibit the interaction
- Luciferase activity [4]: 8.97 ± 0.26 RLU×10^−5 and 6.70 ± 2.9 RLU×10^−5 and 6.50 ± 1.13 RLU×10^−5
- effect on gp120-17b interaction ([5]; 40 nM gp120 YU2 co-incubated with 0 to 80 nM, FIG. 7): strongly inhibits the gp120-17b interaction
- effect on gp120 binding to mAb 17b ([5]; gp120 YU2 and inhibitors at 40 nM, FIG. 6): totally inhibit the interaction
- Kd ([6]; 1:1 Langmuir model): 3.7 nM
- Kd [6, 13]: 10 nM
- Luciferase activity ([7]; mCD4-HS12 5 nM): 0.142 ± 0.64 RLU×10^−5
- Luciferase activity ([7]; mCD4-HS12 20 nM): 0.047 ± 0.06 RLU×10^−5
- Luciferase activity ([7]; mCD4-HS12 100 nM): 0.035 ± 0.05 RLU×10^−5
- inhibition of gp120/CD4 interaction [8]: inhibits the gp120/CD4 interaction more strongly than mCD4
- Kd ([9]; 1:1 Langmuir model): 2.7 nM
- Kd [9, 13]: 7.2 nM
- inhibition of gp120/CD4 interaction [10]: inhibits the gp120/CD4 interaction more strongly than mCD4
- ED70 [11]: 2.05 ± 0.55 nM
- ED90 [11]: 3.0 ± 0.65 nM
- EC50 [11, 12]: 1.4 ± 0.9 nM

“And” between values parts separate entries of the source, which are not always exact repeats. Identical values can stand only once. Like-named read-outs stand apart in the source and are kept apart here.
